Six compounds from paper PMC8863796 (Communications Biology, 2022) can be followed below.

This data set concerns SARS-CoV-2. In kind it is cell-based. Particulars: Selectivity index = CC50/EC50.

Regarding `COC(=O)N[C@H](C(=O)N1CCC[C@H]1C(=O)Nc1ccc([C@@H]2CC[C@@H](c3ccc(NC(=O)[C@@H]4CCCN4C(=O)[C@@H](NC(=O)OC)C(C)C)cc3)N2c2ccc(C(C)(C)C)cc2)cc1)C(C)C` [Ombitasvir], the SI was 175.

Turning to `NC(=O)c1nc(F)cnc1O` [Favipiravir, 6-fluoro-3-hydroxy-2-pyrazinecarboxamide], the SI came to 85.

As to `CC(C)OC(=O)[C@H](C)N[P@](=O)(OC[C@H]1O[C@@H](n2ccc(=O)[nH]c2=O)[C@](C)(F)[C@@H]1O)Oc1ccccc1` [Sofosbuvir], the SI worked out at 82.

In the case of `COC(=O)N[C@H](C(=O)N1CCC[C@H]1c1nc2cc([C@H]3CC[C@H](c4cc5nc([C@@H]6CCCN6C(=O)[C@@H](NC(=O)OC)[C@@H](C)OC)[nH]c5cc4F)N3c3cc(F)c(N4CCC(c5ccc(F)cc5)CC4)c(F)c3)c(F)cc2[nH]1)[C@@H](C)OC` [Pibrentasvir], the SI worked out at 31.

The compound `CC(C)OC(=O)OCOP(=O)(CO[C@H](C)Cn1cnc2c(N)ncnc21)OCOC(=O)OC(C)C` [Tenofovir, Tenofovir disoproxil] returned an SI of 21.

For `CCC(CC)COC(=O)[C@H](C)N[P@](=O)(OC[C@H]1O[C@@](C#N)(c2ccc3c(N)ncnn23)[C@H](O)[C@@H]1O)Oc1ccccc1` [Remdesivir], the SI is 5333.
